A mixed list of measured activities; the numbers were collected in NIAID ChemDB.

Shared fields: growth or infection tests; organism: HIV-1

Rows are shuffled and stem from different studies.

compound,mutations,strain,read-out,method,cell line,result
O=C1Nc2ccc(Cl)cc2[C@@](C#CC2CC2)(C(F)(F)F)N1,RT-L100I,,EC90,,,0.006 µM
O=C(C(=O)N1CCN(C(=O)c2c(S)cccc2Cl)CC1)c1c[nH]c2cccc(Cl)c12,,,EC50,luciferase,HeLa + HELA CD4+/CCR5,<10 µM
C=CCC(C(=O)O)c1c(-c2ccc(Cl)cc2)c2cc(Br)ccc2[nH]c1=O,,,EC50,luciferase / reporter gene,C8166,<20 µM
Clc1cc(CN2CCCNCCNCCCNCC2)cc(Cl)n1,,NL4-3 AMD3100-resistant X4,EC50,p24,MT-4,9.7 µM
CC(C)OC(=O)c1cc(NC(=S)OC(C)(C)C)ccc1Cl,RT-V106A,,EC50,syncytia,CEM,2.577 µM
Cc1nc2ccc(Cl)cc2c(-c2cccc(F)c2)c1C(OC(C)C)C(=O)O,,,EC50,luciferase / reporter gene,C8166,<20 µM
C[C@@H]1CN(C(=O)c2ccccc2)CCN1C(=O)C(=O)c1c[nH]c2c(C(=O)O)cccc12,,,EC50,luciferase,HeLa + HELA CD4+/CCR5,<10 µM
Cc1cc(COC(C(=O)O)c2c(C)nc3ccc(Br)cc3c2-c2ccc(Cl)cc2)no1,,,EC50,luciferase / reporter gene,C8166,<20 µM
Cc1cc(/C=C/C#N)cc(C)c1Oc1nc(NC2CCN(Cc3cccc(C#N)c3)CC2)nc2ccsc12,,RES056,EC50,MTT,MT-4,0.115 µM
CCCOC(=S)Nc1ccc(Cl)c(C(=O)OC(C)C)c1,RT-Y181C,,EC50,syncytia,CEM,17.41 µM
C[C@@H]1CN(C(=O)c2ccccc2)CCN1C(=O)C(=O)c1c[nH]c2c(F)ccc(F)c12,,,EC50,luciferase,HeLa + HELA CD4+/CCR5,<10 µM
Cc1cc(/C=C/C#N)cc(C)c1Oc1nc(NC2CCN(Cc3cccnc3)CC2)nc2ccsc12,,RES056,EC50,MTT,MT-4,0.0125 µM
O=C1Nc2ccc(Cl)cc2[C@@](/C=C/C2CC2)(C(F)(F)F)N1,RT-K103N,,EC90,,,0.027 µM
CC(=O)c1c(C)nc(-c2ccccc2)nc1NC(=O)c1ccccc1,,7295-1,EC50,GFP / fluorescence,HeLa,0.08 µM
Cc1cc(/C=C/C#N)cc(C)c1Oc1nc(NC2CCN(Cc3ccccc3Br)CC2)nc2ccsc12,NNRTI-resistant (RT E138K),IIIB,EC50,MTT,MT-4,0.145 µM
CC(=O)Nc1ccc(F)c2c(C(=O)C(=O)N3CCC(=C(C#N)c4ccccn4)CC3)c[nH]c12,,,EC50,luciferase / reporter gene,HeLa,<1 µM
CC(C)O/N=C/c1cc(NC(=S)OC(C)C)ccc1Cl,RT-V106A,,EC50,syncytia,CEM,1.36 µM
O=C(C(=O)N1CCN(C(=O)c2ccncc2)CC1)c1c[nH]c2cccc(F)c12,,,EC50,luciferase,HeLa + HELA CD4+/CCR5,<10 µM
CCC(CC)OC(=O)c1cc(NC(=S)OC(C)C)ccc1Cl,,IIIB,EC50,syncytia,CEM,0.116 µM
CCCc1cc(=O)oc2c3c(c4c(c12)OC(C)(C)CC4)O[C@H](C)[C@@H](C)C3=O,RT-Y181C K103N,,EC50,cytopathic effect / XTT,,6.19 µM
C[C@@H]1CN(C(=O)c2ccccc2)CCN1C(=O)C(=O)c1c[nH]c2c(NC(=O)NCCCCCCNC(=O)Nc3ccc(B(O)O)cc3)cccc12,,,EC50,luciferase / reporter gene,HeLa,<1 µM
C/C=C/COC(C(=O)O)c1c(C)nc2ccc(Br)cc2c1-c1ccc(Cl)cc1,,,EC50,luciferase / reporter gene,C8166,<20 µM
CC(C)COC(=O)c1cc(NC(=S)OC(C)C)ccc1Cl,RT-E138K,,EC50,syncytia,CEM,1.667 µM
N#CC1=CC2Nc3ccccc3C2N(c2ccc([N+](=O)[O-])cc2)C1=O,,AE-CMU06,EC50,GFP / fluorescence,HeLa,0.067 µM
COCc1nc(Nc2ccc(C#N)cc2)nc(Nc2c(C)cc(/C=C(\C)C#N)cc2C)c1C(=O)NCc1ccncc1,,MDR,EC50,,MT4 CMV-EGFP,0.155 µM
C=C(C)COc1cc(NC(=S)OC(C)C)ccc1Cl,RT-E138K,,EC50,syncytia,CEM,2.335 µM
COc1ccnc2[nH]cc(C(=O)C(=O)N3C4CC3CN(C(=O)c3ccccc3)C4)c12,,ZM214,EC90,luciferase,TZM-bl,>250 µM
COCc1nc(Nc2ccc(C#N)cc2)nc(Nc2c(C)cc(/C=C/C#N)cc2C)c1C(=O)NCCc1cccs1,,K103N + Y181C,EC50,,MT4 CMV-EGFP,0.0912 µM
CC(C)OC(=S)Nc1ccc(Cl)c(C(=O)OCC(F)(F)F)c1,,IIIB,EC50,syncytia,CEM,0.984 µM
CCCC(C(=O)O)c1c(OC)nc2ccc(Br)cc2c1-c1ccc(Cl)cc1,,,EC50,luciferase / reporter gene,C8166,<20 µM
CC(C)OC(=O)c1cc(NC(=S)OCC2CC2)ccc1Cl,RT-E138K,,EC50,syncytia,CEM,6.1 µM
Cc1cc(/C=C/C#N)cc(C)c1Oc1nc(NC2CCN(Cc3ccncc3)CC2)nc2ccsc12,NNRTI-resistant (RT F227L V106A),IIIB,EC50,MTT,MT-4,0.0148 µM
C[C@H]1CO[C@@H]2Cn3cc(C(=O)NCc4ccc(F)cc4F)c(=O)c(O)c3C(=O)N12,N155H,NL4-3,EC50,RT activity,CBMC,0.0012 µM
COC(=O)NCCCCNC(=O)Nc1cccc2c(C(=O)C(=O)N3CCN(C(=O)c4ccccc4)C[C@H]3C)cn(C(=O)NCCCCNC(=O)OC)c12,,,EC50,luciferase / reporter gene,HeLa,<1 µM
Cc1ccc(C)n1-c1ccc(C(=O)O)c(O)c1,,93IN101 R5 CLADE C,EC90,p24,PBMC + MT-2,10.94 µM
C[C@@H]1CN(C(=O)c2ccccc2)CCN1C(=O)C(=O)c1c[nH]c2c(NC(=O)NCC(=O)O)cccc12,,,EC50,luciferase / reporter gene,HeLa,<1 µM
Cc1cc(/C=C/C#N)cc(C)c1Oc1nc(NC2CCN(Cc3ccc([N+](=O)[O-])cc3)CC2)nc2ccsc12,NNRTI-resistant (RT E138K),IIIB,EC50,MTT,MT-4,0.0408 µM
COCc1nc(Nc2ccc(C#N)cc2)nc(Nc2c(C)cc(/C=C/C#N)cc2C)c1C(=O)NCc1cccs1,,K103N + Y181C,EC50,,MT4 CMV-EGFP,0.0741 µM
COc1ccnc2[nH]cc(C(=O)C(=O)N3CCN(C(=O)c4ccccc4)C[C@H]3C)c12,,ZM214,EC50,luciferase,TZM-bl,0.005 µM
COCc1nc(Nc2ccc(C#N)cc2)nc(Nc2c(C)cc(/C=C/C#N)cc2C)c1C(=O)N(C)OC,,K103N+Y101C,EC50,,MT4 CMV-EGFP,0.0759 µM
CCC(C)OC(=S)Nc1ccc(Cl)c(C(=O)OC(C)(C)C)c1,RT-V106A,,EC50,syncytia,CEM,1.018 µM
O=C(C(=O)N1CCN(C(=O)c2cnccn2)CC1)c1c[nH]c2cccc(Cl)c12,,,EC50,luciferase,HeLa + HELA CD4+/CCR5,<10 µM
CCCCC(CC)COC(=O)c1cc(NC(=S)OC(C)C)ccc1Cl,,IIIB,EC50,syncytia,CEM,0.207 µM
CC(=O)Oc1ccccc1C(=O)N1CCN(C(=O)C(=O)c2c[nH]c3cccc(F)c23)CC1,,,EC50,luciferase,HeLa + HELA CD4+/CCR5,<10 µM
C=CCOc1cc(NC(=S)OC(C)C)ccc1C#N,RT-L100I,,EC50,syncytia,CEM,≥3.618 µM
COCc1nc(Nc2ccc(C#N)cc2)nc(Nc2c(C)cc(/C=C/C#N)cc2C)c1C(=O)NCCN(C)C,,K103N + Y181C,EC50,,MT4 CMV-EGFP,0.0631 µM
CC(=O)OCCOC(=O)c1cc(NC(=S)OC(C)C)ccc1Cl,RT-Y181C,,EC50,syncytia,CEM,≥27.79 µM
COCc1nc(Nc2ccc(C#N)cc2)nc(Oc2c(C)cc(/C=C/C#N)cc2C)c1C(=O)NCc1ccncc1,,MDR,EC50,,MT4 CMV-EGFP,1.23 µM
CC(C)OC(=O)c1cc(NC(=S)OCC2(C)COC2)ccc1Cl,RT-Y181C,,EC50,syncytia,CEM,>29.94 µM
C=CCC(C(=O)O)c1c(C)nc2ccc(Br)cc2c1-c1ccc(Cl)cc1,,,EC50,luciferase / reporter gene,C8166,<20 µM
C=CCOC(=O)c1cc(NC(=S)OC(C)C)ccc1Cl,RT-L100I,,EC50,syncytia,CEM,2.231 µM
CCOC(=O)c1ccc(CN2CCC(Nc3nc(Oc4c(C)cc(C#N)cc4C)c4ccsc4n3)CC2)cc1,NNRTI-resistant (RT K103N),IIIB,EC50,MTT,MT-4,0.369 µM
CC(=O)COc1cc(NC(=S)OC(C)C)ccc1Cl,RT-Y181C,,EC50,syncytia,CEM,24.85 µM
Cc1nc(C(=O)N2CCN(C(=O)C(=O)c3c[nH]c4cccc(Cl)c34)CC2)cs1,,,EC50,luciferase,HeLa + HELA CD4+/CCR5,<10 µM
C=CCSc1cc(NC(=S)OC(C)C)ccc1Cl,RT-L100I,,EC50,syncytia,CEM,2.231 µM
CCC(=O)c1ccc(F)c([C@@H]2C[C@@H]2NC(=O)Nc2ccc(C#N)cn2)c1O,NNRTI-resistant (RT Y188L),LAI,EC50,β-galactosidase / luminescence,TZM-bl,≥0.0625 µM
CCCCOC(=O)c1cc(NC(=S)OC(C)C)ccc1Cl,RT-E138K,,EC50,syncytia,CEM,1.74 µM
COc1ccc(-c2c(C(OC(C)C)C(=O)O)c(C)nc3ccc(Cl)cc23)cc1OC,,,EC50,luciferase / reporter gene,C8166,<20 µM
C=CCNC(=O)c1c(COC)nc(Nc2ccc(C#N)cc2)nc1Nc1c(C)cc(/C=C/C#N)cc1C,,MDR,EC50,,MT4 CMV-EGFP,0.191 µM
COCCOC(=S)Nc1ccc(Cl)c(C(=O)OC(C)C)c1,RT-V106A,,EC50,syncytia,CEM,21.09 µM

An empty or dashed field is not shown. ECn is the concentration giving n% inhibition of infection, replication or growth.